# Taken from: PubChem BioAssay AID624099 (ICCB-Longwood, 2012)
# Purpose: 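Knock-downs relieving repression by E2 of an HPV18 LCR luciferase reporter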 (primary screen)
# Cells: human C33A cervical carcinoma cells (HPV-negative) stably expressing BPV1 E2 and an HPV18 LCR luciferase reporter
# Reagents: siRNA pool against human genes, 40 nM
# Time to read-out: 72 h
# Read-out: 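HPV18 LCR reporter light per well, converted to plate-wise z-scores that exclude control wells, and averaged over triplicate plates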
# Reading the numbers: mean z-score and z-score: higher = stronger reporter signal, weaker E2 silencing
# Call rule: 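Hit if mean z-score reaches 2 and two or more of three replicate z-scores also reach 2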
# Here is one part, drawn at random, of about 21,000 deposited reagents. 497 of them (2.4%) were called active. 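Higher z means weaker E2 silencing; only reporter increases were scored, and knock-downs that hurt cell survival may mask genuine repressor factors.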 Entries without a mark were called inactive. Reagents against one gene are numbered here.
mean z-score,"z-score, replicate A","z-score, replicate B","z-score, replicate C",target,pool no.
-0.21,-0.18,-0.12,-0.32,AKNA (AT-hook transcription factor),1
0.34,0.43,0.26,0.33,NECAP1 (NECAP endocytosis associated 1),1
-0.44,-0.33,-0.74,-0.24,RPS17P10 (ribosomal protein S17 pseudogene 10),1
-1.37,-1.29,-1.48,-1.33,LSM2,1
-0.45,-0.54,-0.24,-0.57,LOC643348 (ankyrin repeat domain containing 26 pseudogene),1
0.53,0.76,0.33,0.49,MYH7 (myosin heavy chain 7),1
1.44,0.98,1.82,1.52,KRTAP4-5 (keratin associated protein 4-5),1
0.63,0.43,0.58,0.9,UBTF (upstream binding transcription factor),1
-0.12,0.18,-0.57,0.03,ZNF436 (zinc finger protein 436),1
0.82,0.27,0.89,1.31,FAM86B1,1
-0.98,-1.08,-0.7,-1.16,"PPM1D (protein phosphatase, Mg2+/Mn2+ dependent 1D)",1
1.41,1.29,1.45,1.49,TAB1 (TGF-beta activated kinase 1 (MAP3K7) binding protein 1),1
0.63,0.9,0.5,0.5,LOC400602 (retired record),1
-1.85,-1.61,-1.61,-2.33,KALRN (kalirin RhoGEF kinase),1
0.68,0.84,0.74,0.44,KALRN (kalirin RhoGEF kinase),2
1.76,1.63,2.29,1.36,TLNRD1 (talin rod domain containing 1),1
-0.89,-1.14,-0.37,-1.16,RPL26L1 (ribosomal protein L26 like 1),1
-0.93,-0.34,-0.87,-1.56,EFCAB14 (EF-hand calcium binding domain 14),1
-0.96,-0.64,-0.9,-1.35,SRSF10 (serine and arginine rich splicing factor 10),1
0.91,1,0.85,0.87,G6PC1 (glucose-6-phosphatase catalytic subunit 1),1
0.15,0.23,0.23,0,SLC36A4,1
0.65,0.63,0.6,0.72,LOC339793 (retired record),1
-0.36,-0.32,-0.46,-0.29,EPN3 (epsin 3),1
1.49,1.98,1.46,1.02,TERF1P5 (TERF1 pseudogene 5),1
0.7,1.26,0.79,0.04,LOC401058 (retired record),1
-0.96,-0.92,-1.19,-0.76,TMEM63B (transmembrane protein 63B),1
1.03,1.06,0.95,1.08,GTF2IRD2 (GTF2I repeat domain containing 2),1
0.96,0.84,1.11,0.94,CLEC2D (C-type lectin domain family 2 member D),1
-0.7,-0.49,-1.01,-0.62,PGBD5 (piggyBac transposable element derived 5),1
0.69,0.59,0.8,0.67,FAXC,1
2.14 (active),2.46,1.89,2.07,"LSM10 (LSM10, U7 small nuclear RNA associated)",1
0.03,0.04,-0.02,0.08,SNX29 (sorting nexin 29),1
-1.13,-0.88,-1.19,-1.33,SNX29 (sorting nexin 29),2
0.39,0.2,0.3,0.68,LOC402522 (retired record),1
-0.48,-0.48,,-0.49,DUX1 (double homeobox 1),1
0.25,0.06,0.5,0.19,CENPI (centromere protein I),1
-2.78,-3.02,-2.86,-2.44,MAPT (microtubule associated protein tau),1
-0.74,-0.9,-0.91,-0.42,NGRNP3 (NGRN pseudogene 3),1
-0.65,-0.77,-0.48,-0.7,"JUN (Jun proto-oncogene, AP-1 transcription factor subunit)",1
-0.33,-0.03,-0.37,-0.6,ABCC5 (ATP binding cassette subfamily C member 5),1
-0.18,-0.03,-0.02,-0.48,ELOA2 (elongin A2),1
0.03,-0.12,0.07,0.13,ZNF266 (zinc finger protein 266),1
-1.39,-1.51,-1.18,-1.48,HCFC2 (host cell factor C2),1
-0.36,-0.2,-0.38,-0.5,LOC391429 (retired record),1
-0.2,-0.2,-0.36,-0.04,MVK (mevalonate kinase),1
-0.15,0,-0.13,-0.31,CHRNB2 (cholinergic receptor nicotinic beta 2 subunit),1
1.86,1.24,2.13,2.19,TMC1 (transmembrane channel like 1),1
-0.36,-0.46,-0.39,-0.22,PNOC (prepronociceptin),1
-0.31,-0.45,-0.31,-0.17,TPI1P2 (triosephosphate isomerase 1 pseudogene 2),1
-0.66,-0.53,-0.61,-0.83,"PPM1F (protein phosphatase, Mg2+/Mn2+ dependent 1F)",1
1.42,1.21,1.44,1.62,S100G (S100 calcium binding protein G),1
0.08,0.24,-0.08,0.08,BHLHA15 (basic helix-loop-helix family member a15),1
2.19 (active),2.09,2.12,2.36,TPTE2,1
0.75,0.73,0.44,1.1,VPS39 (VPS39 subunit of HOPS complex),1
-0.61,-0.62,-0.94,-0.28,OR1D2 (olfactory receptor family 1 subfamily D member 2),1
-0.6,-0.88,-0.71,-0.21,CRTAC1 (cartilage acidic protein 1),1
1.64,1.82,1.54,1.56,ARL3 (ARF like GTPase 3),1
0.24,-0.12,0.48,0.36,MPHOSPH6 (M-phase phosphoprotein 6),1
-0.93,-0.86,-0.9,-1.03,CCDC83 (coiled-coil domain containing 83),1
0.13,-0.23,0.52,0.09,LOC387886 (retired record),1
1.85,1.91,1.92,1.7,FBXW10 (F-box and WD repeat domain containing 10),1
-0.31,0.23,-0.66,-0.5,DCAKD (dephospho-CoA kinase domain containing),1
-0.31,-0.13,-0.32,-0.47,"POLD1 (DNA polymerase delta 1, catalytic subunit)",1
-1.76,-1.9,-1.97,-1.42,EIF3LP3,1
0.01,0.4,-0.07,-0.3,HAPLN4 (hyaluronan and proteoglycan link protein 4),1
1.65,1.8,1.66,1.5,IL12A (interleukin 12A),1
2.37 (active),2.39,2.38,2.35,APOOL (apolipoprotein O like),1
0.07,0,0.29,-0.07,SLC37A3,1
-0.45,-0.5,-0.09,-0.75,FADS2 (fatty acid desaturase 2),1
-0.67,-0.77,-0.57,-0.68,ARID5A (AT-rich interaction domain 5A),1
-0.81,-0.64,-1.18,-0.62,KIF1B (kinesin family member 1B),1
-0.13,-0.09,-0.19,-0.12,SSBP2 (single stranded DNA binding protein 2),1
-0.26,-0.31,-0.23,-0.24,CUEDC1 (CUE domain containing 1),1

Called active (from the list above):
mean z-score,"z-score, replicate A","z-score, replicate B","z-score, replicate C",target,pool no.
2.14 (active),2.46,1.89,2.07,"LSM10 (LSM10, U7 small nuclear RNA associated)",1
2.19 (active),2.09,2.12,2.36,TPTE2,1
2.37 (active),2.39,2.38,2.35,APOOL (apolipoprotein O like),1
